## Primary screen of a compound library

Measurements from “University of Dundee, Small-Polar-MMV Screening Library” (2021), ChEMBL document CHEMBL3988442.

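Growth of Mycobacterium tuberculosis over 3 days (7H9 medium with glucose and tyloxapol); the read-out is not stated. Compounds at 500 µM. Higher reads as more growth inhibition (inferred: compounds with an IC50 in retests scored well above the rest). Of about 18,000 compounds tested this way, about 1,400 (7.9%) reached 50% or more in at least one test.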

Values are the deposited “Percent Effect”, in %. The controls that fix the scale are not given in the record; negative values are as filed. Many other results are left out here, so strong results are more common than in the screen.

| SMILES | Percent Effect |
|---|---|
| `CC[C@@]1(O)CCN(C(=O)CCc2cc(Cl)no2)C[C@H]1O` | 41.53 |
| `Cc1ccnc(NCCS(=O)(=O)NCC2CCC2)c1` | 72.24 |
| `CC(CCO)NCc1ccccc1` (stereo not given) | -0.4929 |
| `CCCOc1nc(C)cc(COC)c1C(N)=O` | -3.103 |
| `NCC(=O)Nc1ccc2c(c1)OCCO2` | 19.63 |
| `Cn1nccc1C(=O)N[C@@H]1COCC[C@@H]1OCC(N)=O` | 6.299 |
| `CNCCCNC(=O)c1coc(Br)c1` | 6.344 |
| `Cc1nnc(SCC(=O)NCC2CC2)s1` | 19.42 |
| `CC(C(=O)Nc1ccc(S(N)(=O)=O)cc1)N1CCCC1` (stereo not given) | 12.19 |
| `Nc1ccc(N2CCNCC2=O)cn1` | -107.4 |
| `CCC(CO)Nc1ncnc2c1c(Br)nn2C` (stereo not given) | 25.65 |
| `COc1ccc(S(=O)(=O)N(C)C)cc1NCC1CC1` | 56.66 |
| `CCc1nnc(N)o1` | -6.997 |
| `COCCCNC(=O)CN1CCn2cccc2C1C` (stereo not given) | -14.62 |
| `Cc1nnc(CNC(=O)NCC(F)(F)F)n1C1CC1` | 46.66 |
| `OCCOCCNCC(O)COCc1ccccc1Cl` (stereo not given) | 67.41 |
| `CN1C(=O)C(N)Cc2ccccc21` (stereo not given) | -2.712 |
| `O=C(CSc1nnc2n1CCCCC2)N1CCCC1` | 8.076 |
| `Cn1nccc1CCC(=O)N1C[C@H](C2CC2)[C@@H](N)C1` | 8.647 |
| `CC1NCCCNC1=O` (stereo not given) | -2.186 |
| `O=C1CN(Cc2ccccc2)C(=O)CN1` | 5.3 |
| `NC(=O)CN(Cc1ccc(Br)cc1)C(=O)c1ccco1` | 52.53 |
| `Cc1onc(N)c1S(=O)(=O)NCc1ccccn1` | 4.206 |
| `CNC(=O)c1sc(NC2CC2)nc1C` | 68.04 |
| `CS(=O)(=O)CC1(CNCc2ccsc2)CC1` | 36.56 |
| `O=S(=O)(CCN1CCCC1)c1ccc(Cl)cc1` | 44.44 |
| `O=C1CC2(CCCNC2)CN1` (stereo not given) | 6.728 |
| `N#CCC(=O)NC1CCN(CC2CCCC2)CC1` | 9.41 |
| `CN1CCN(C(=O)CC#N)CC1` | -5.7 |
| `CC(=O)Nc1nc(COc2ccc(C)cn2)cs1` | 82.95 |
| `Nc1ccc(CNc2ccc(C(F)(F)F)nn2)cn1` | 69.68 |
| `NC1CCCN(S(=O)(=O)C=Cc2cccc(Cl)c2)C1` (stereo not given) | 79.13 |
| `CNC(C)c1ccco1` (stereo not given) | 17.56 |
| `CCc1noc(COC2CNC2)n1` | 14.77 |
| `Cc1cnccc1CNC(=O)CSCCN1CCCC1` | 12.1 |
| `FC(F)(F)CNC1COC1` | -8.969 |
| `Cc1nn(C)c(C)c1C(C)NC(=O)c1cccnc1` (stereo not given) | -3.12 |
| `CC(O)CNCCNCc1ccc(-c2ccccc2)o1` (stereo not given) | 60.04 |
| `COc1ccc(NC(=O)c2cccn2C)cc1OC` | 33.85 |
| `CC1(CO)CCCN1Cc1ccccc1` (stereo not given) | 6.05 |
| `N#Cc1cccnc1N1CCCNCC1` | 53.09 |
| `CN(C(=O)c1ccccc1)S(=O)(=O)c1ccccc1` | 81.1 |
| `NCc1nnc(CCc2ccccc2)o1` | 35.55 |
| `Cc1cccc(OCC(O)CN)c1` (stereo not given) | 55.11 |
| `O=C(NCCCNCc1cccnc1)c1occc1Br` | -5.127 |
| `CCc1nsc(NC2CCN(C(C)=O)C2)n1` (stereo not given) | 19.03 |
| `CCC(=O)Nc1nc2c(s1)COCC2` | 10.53 |
| `Cc1ncsc1CCCNC(=O)CNC(=O)N(C)C` | 3.189 |
| `CCC(C)NC(=O)N(CCN(C)C)CCN(C)C` (stereo not given) | -2.846 |
| `FC(F)(F)c1cccnc1NCC1CNCCOC1` (stereo not given) | 16.31 |
| `O=C(NCCc1ccccn1)C1CCC1` | 20.35 |
| `Cc1ccc(-n2nnc(C(N)=O)c2C)cc1` | -5.351 |
| `CN1CCCN(CC(=O)NCCc2ncnn2C)CC1` | -12.84 |
| `Cc1ccc(CN(C)CC(=O)N2CCNC2=O)c(C)c1` | -14.74 |

Once more, the final 6:

{"smiles": "CCC(C)NC(=O)N(CCN(C)C)CCN(C)C", "stereo": "stereo not given", "Percent Effect": -2.846}
{"smiles": "FC(F)(F)c1cccnc1NCC1CNCCOC1", "stereo": "stereo not given", "Percent Effect": 16.31}
{"smiles": "O=C(NCCc1ccccn1)C1CCC1", "Percent Effect": 20.35}
{"smiles": "Cc1ccc(-n2nnc(C(N)=O)c2C)cc1", "Percent Effect": -5.351}
{"smiles": "CN1CCCN(CC(=O)NCCc2ncnn2C)CC1", "Percent Effect": -12.84}
{"smiles": "Cc1ccc(CN(C)CC(=O)N2CCNC2=O)c(C)c1", "Percent Effect": -14.74}